Source: PubChem BioAssay AID1259414 (Drosophila RNAi Screening Center, 2018)
The screen tested about 24,000 reagents; below is a random part of those with a known target gene and a result. In the full data, about 1,210 (5%) got an active call. 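Inactive calls also include excluded dsRNAs with several or no targets, genes unexpressed in JW18, and well A1, regardless of score.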 Names joined by + are all predicted targets of the reagent.

- Purpose: 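Host factors increasing or decreasing Wolbachia levels in cultured fly cells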 (primary screen)
- System: Drosophila JW18 cells infected with Wolbachia
- Reagents: long dsRNA against Drosophila genes, 0.25 µg dsRNA per well of a 384-well plate
- Timing: 5 days
- Treatment: cells persistently infected with Wolbachia before knock-down; no added drug
- Read-out: 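Imaged fluorescence in situ signal for Wolbachia 23S rRNA per DAPI-counted host cell, given as a robust z-score within each plate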
- Reading the numbers: Wolbachia per cell robust z: higher = more Wolbachia per host cell than the plate typical
- Call rule: 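Hit when robust z is 1.5 or more, or -1.5 or less, in at least two of three replicates; excludes dsRNAs with several or no targets, genes not expressed in JW18 and well A1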

Target gene | dsRNA | Wolbachia per cell robust z, rep 1 | Wolbachia per cell robust z, rep 2 | Wolbachia per cell robust z, rep 3 | outcome
Ufm1 (GeneID 5740715) | DRSC38750 | 0.201 | -1.26 | -0.303 | inactive
tay (GeneID 32547) | DRSC20142 | -0.144 | -11.1 | -0.259 | inactive
CG1789 (GeneID 31812) | DRSC18140 | 0.671 | 0.131 | -0.136 | inactive
CG1789 (GeneID 31812) | DRSC28967 | 0.165 | 0.22 | 0.0307 | inactive
CG18764 (GeneID 59239) | DRSC15391 | 0.581 | 0.184 | -0.317 | inactive
CG11191 (GeneID 35765) | DRSC23224 | 0.95 | 0.689 | 0.315 | inactive
CG11191 (GeneID 35765) | DRSC28710 | -1.21 | 0.33 | -0.632 | inactive
Fer2LCH (GeneID 44965) | DRSC16672 | -0.122 | -3.56 | 0.457 | inactive
Fer2LCH (GeneID 44965) | DRSC29169 | 0.676 | -1.3 | -0.221 | inactive
Atac3 (GeneID 38055) | DRSC08579 | 0.356 | -1.77 | 0.876 | inactive
Ask1 (GeneID 42366) | DRSC16789 | -0.198 | -4.15 | -2.29 | active
Ask1 (GeneID 42366) | DRSC21697 | -0.869 | -0.755 | -1.63 | inactive
TyrRS (GeneID 39829) | DRSC10430 | 0.732 | 1.15 | -2.01 | inactive
TyrRS (GeneID 39829) | DRSC27145 | -0.0266 | -0.0485 | 0.368 | inactive
CG14893 (GeneID 42023) | DRSC15015 | -2.19 | -0.538 | -1.22 | inactive
Fas1 (GeneID 42025) | DRSC16669 | -0.583 | 0.793 | 0.667 | inactive
lncRNA:CR32835 (GeneID 12798142) | DRSC22693 | 0.535 | 0.0519 | 1.35 | inactive
lncRNA:CR32835 (GeneID 12798142) | DRSC26198 | -1.6 | -0.377 | -0.179 | inactive
Uba2 (GeneID 44496) | DRSC11311 | 0.371 | -0.0903 | -3.37 | inactive
CG32655 (GeneID 318143) | DRSC18925 | -0.433 | 1.47 | 0.515 | inactive
P5cr-2 (GeneID 42106) | DRSC15889 | -2.33 | 1.15 | 1.06 | inactive
link (GeneID 36509) | DRSC06368 | 0.571 | -0.681 | -0.806 | inactive
link (GeneID 36509) | DRSC23511 | -1.44 | -1.7 | -1.93 | active
link (GeneID 36509) | DRSC39026 | -3.16 | 0.501 | -0.0474 | inactive
Dp (GeneID 36461) | DRSC07402 | -7.26 | 1.46 | 2.33 | inactive
Dp (GeneID 36461) | DRSC40819 | 1.55 | 2.16 | 1.27 | active
CG42534 (GeneID 43298) | DRSC16072 | -1.56 | 0.366 | 1.11 | inactive
CG42534 (GeneID 43298) | DRSC23131 | 0.235 | 0.488 | 0.557 | inactive
CG42534 (GeneID 43298) | DRSC26096 | -1.54 | -0.016 | -0.725 | inactive

Reagents listed so far with an active call:
Target gene | dsRNA | Wolbachia per cell robust z, rep 1 | Wolbachia per cell robust z, rep 2 | Wolbachia per cell robust z, rep 3 | outcome
Ask1 (GeneID 42366) | DRSC16789 | -0.198 | -4.15 | -2.29 | active
link (GeneID 36509) | DRSC23511 | -1.44 | -1.7 | -1.93 | active
Dp (GeneID 36461) | DRSC40819 | 1.55 | 2.16 | 1.27 | active

Next entries:
Target gene | dsRNA | Wolbachia per cell robust z, rep 1 | Wolbachia per cell robust z, rep 2 | Wolbachia per cell robust z, rep 3 | outcome
CG42395 (GeneID 7354436) | DRSC40592 | 0.942 | -0.867 | 0.294 | inactive
GC2 (GeneID 41449) | DRSC14476 | -0.0234 | -1.69 | -0.201 | inactive
GC2 (GeneID 41449) | DRSC27370 | 1.58 | 0.953 | 0.035 | inactive
CG14985 (GeneID 38470) | DRSC08443 | -0.0652 | -0.00606 | -1.71 | inactive
wech (GeneID 44653) | DRSC06606 | 0.61 | 0.0604 | 0.169 | inactive
EcR (GeneID 35540) | DRSC04906 | 1.32 | 1.12 | 0.598 | inactive
EcR (GeneID 35540) | DRSC04910 | -0.626 | 1.44 | 0.423 | inactive
EcR (GeneID 35540) | DRSC39130 | -4.31 | 0.612 | -1.55 | active
Pgant35A + asRNA:CR43463 | DRSC03557 | -0.516 | 0.278 | 0.32 | inactive
Pgant35A + asRNA:CR43463 | DRSC28249 | 0.186 | 0.402 | 0.906 | inactive
Egfrap (GeneID 3885637) | DRSC09963 | -0.844 | -0.128 | -0.411 | inactive
Egfrap (GeneID 3885637) | DRSC09964 | -0.472 | 0.945 | -0.365 | inactive
Egfrap (GeneID 3885637) | DRSC25261 | -0.12 | 0.174 | 0.661 | inactive
obst-B (GeneID 34336) | DRSC01987 | 0.913 | 0.181 | 0.851 | inactive
CG5888 (GeneID 34980) | DRSC01929 | 0.556 | 1.36 | 0.665 | inactive
CG5888 (GeneID 34980) | DRSC28190 | 1.55 | 0.923 | 0.641 | inactive
Taf6 (GeneID 40134) | DRSC11299 | 0.487 | -0.395 | 0.774 | inactive
CG14085 (GeneID 40099) | DRSC10089 | -0.616 | 0.37 | -1.38 | inactive
Or33b (GeneID 34602) | DRSC03387 | 1.04 | 0.479 | -5.94 | inactive
ZnT86D (GeneID 41342) | DRSC16091 | -0.62 | -0.675 | -2.4 | inactive
CG11247 (GeneID 40414) | DRSC11643 | -0.857 | 0.669 | 0.794 | inactive
CG11247 (GeneID 40414) | DRSC21901 | -2.09 | -0.896 | -0.384 | inactive
CG11247 (GeneID 40414) | DRSC26558 | -0.791 | 0.0563 | -0.0375 | inactive
CG7029 (GeneID 42703) | DRSC16177 | 0.667 | 1.18 | -0.314 | inactive
CG7029 (GeneID 42703) | DRSC23898 | 0.403 | -0.0834 | 2.75 | inactive
Daao1 (GeneID 36128) | DRSC06131 | 0.789 | -0.122 | -0.0246 | inactive
CG30110 (GeneID 246462) | DRSC05686 | -2.06 | 0.0613 | 0.945 | inactive
CG10710 (GeneID 39525) | DRSC09784 | 0.296 | -0.786 | -0.159 | inactive
CG17290 (GeneID 36938) | DRSC06662 | 0.156 | -1.69 | 0.38 | inactive
CG17290 (GeneID 36938) | DRSC27119 | 0.726 | -0.348 | -2.85 | inactive
CG14362 (GeneID 41695) | DRSC14824 | -1.4 | -1.17 | -3.27 | inactive
CG14362 (GeneID 41695) | DRSC41508 | 0.515 | 0.403 | 0.413 | inactive
Gs2 (GeneID 32087) | DRSC20250 | 0.0495 | 0.138 | 0.393 | inactive
Gs2 (GeneID 32087) | DRSC26818 | 0.847 | 0.339 | -1.35 | inactive
Sfp77F (GeneID 8674043) | DRSC40642 | -2.4 | -1.45 | 0.206 | inactive
CG33217 (GeneID 2768951) | DRSC22907 | 0.787 | 1.16 | 1.2 | inactive
CG33217 (GeneID 2768951) | DRSC28139 | -0.465 | 0.443 | -0.506 | inactive
nht (GeneID 34902) | DRSC01976 | 0.803 | 0.941 | -0.606 | inactive
NijA (GeneID 39215) | DRSC10637 | 0.173 | 1.04 | 0.615 | inactive
